Legend:
rPrP = rPrP (Mus musculus, UniProt P04925); settings: 1 equiv of peptide added to Cu2+-rPrP; 100 µM 15N-rPrP, 25 mM MES, pH 6.6, 37 °C
[1] = system: PrP^C and NMDARs in SK-N-SH cells; format: cell-based, human; settings: n = 4–6

Sequences of proteins named here, by UniProt entry; tags and fusion partners are left off. Residues count along the entry.
UniProt P04925, 23-230 limits assumed: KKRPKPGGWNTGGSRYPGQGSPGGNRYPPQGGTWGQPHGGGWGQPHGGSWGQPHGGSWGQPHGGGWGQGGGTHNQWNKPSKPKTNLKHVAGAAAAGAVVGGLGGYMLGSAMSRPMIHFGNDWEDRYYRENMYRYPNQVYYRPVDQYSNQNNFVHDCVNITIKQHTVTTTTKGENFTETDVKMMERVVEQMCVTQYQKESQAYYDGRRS

NH2-EFRHDSGYEVHHQK-Am [Aβ(4–16)]
Effect on the Cu2+-promoted cis-interdomain interaction of rPrP (PREs around His139 and His176) (rPrP): dramatically decreases the PREs
Effect on colocalization of PrP^C and GluN2B (PCC) [1]: completely abolished colocalization

From publication PMC11741003 (ACS Chemical Neuroscience, 2024)
